The list shows a part of the results, in another mix than the full data. Some structures show a salt or complex split into parts, the way the source records it. Activity calls are given as the source filed them.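 The calls were made as follows: active = inhibition of 50% or more in the single-dose primary screen; inactive = inhibition below 50%.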
Tested on: hexokinase 1 [Trypanosoma brucei]
Assay: TbHK1 enzyme activity blockers – biochemical, G6PDH-coupled NADH absorbance, MLSCN library, primary screen (AID 1430)
Conditions: recombinant TbHK1, G6PDH-coupled NADH A340; at 10 µM; active compounds read high

Structure (SMILES) | inhibition
Cc1ccccc1NP(C)(=O)Nc1ccccc1C | inactive: 3.61%
CP(=O)(Nc1ccc2c(c1)OCCO2)Oc1ccccc1 (centres undefined) | inactive: -1.28%
CCOP(C)(=S)SCC(=O)NC(C)(CC)C(=O)O (centres undefined) | inactive: 0.857%
CP(=O)(Nc1ccc(SC(F)(F)F)cc1)Oc1ccc(F)cc1 (centres undefined) | inactive: -8.16%
O=[N+]([O-])c1cc([N+](=O)[O-])c(NCC2CCS(=O)(=O)C2)c([N+](=O)[O-])c1 (centres undefined) | inactive: -25.6%
Cc1cc(-c2cccc3ccccc23)c(C)cn1.O=[N+]([O-])c1cc([N+](=O)[O-])c(O)c([N+](=O)[O-])c1 | inactive: -37.9%
O=[N+]([O-])c1ccc(OP2(=O)COCCO2)cc1 (centres undefined) | inactive: -4.31%
COc1ccc(NP(C)(=O)Oc2ccccc2OC)cc1 (centres undefined) | inactive: -11.5%
CN(C)CCOC(=O)C(O)(c1ccccc1)C1CCCCC1 (centres undefined) | inactive: 3.6%
COc1ccc(OP(C)(=O)Nc2cccc(Br)c2)cc1 (centres undefined) | inactive: 1.7%
CCCCCOc1ccc(NP(C)(=O)Oc2ccc(Cl)cc2Cl)cc1 (centres undefined) | inactive: -0.349%
CP(=O)(Nc1ccccc1)Oc1ccc(F)cc1 (centres undefined) | inactive: 3.06%
CCN(CC)CCCOC(=O)C(O)(c1ccccc1)C1CCCCC1 (centres undefined) | inactive: 7.81%
COc1ccc(OP(C)(=O)Nc2ccc(SC(F)(F)F)cc2)cc1 (centres undefined) | inactive: -4.79%
CCOC(=O)c1ccc(NP(C)(=O)Oc2ccc(F)cc2)cc1 (centres undefined) | inactive: -8.2%
COc1ccc2c(c1O)-c1c(O)c(OC)cc3c1[C@H](C2)[N+](C)(C)CC3.O=[N+]([O-])c1cc([N+](=O)[O-])c([O-])c([N+](=O)[O-])c1[O-] | inactive: -56.3%
O=C(OCCN1CCN(CCOCc2ccccc2)CC1)C(O)(c1ccccc1)c1ccccc1 | inactive: -8.42%
O=C(OC1CN2CCC1CC2)c1ccc([N+](=O)[O-])cc1 (centres undefined) | inactive: -6.63%
CC(C)c1ccc(OP(C)(=O)Nc2ccc(SC(F)(F)F)cc2)cc1 (centres undefined) | inactive: 3.66%
CP(=O)(Nc1ccccc1F)Oc1ccccc1 (centres undefined) | inactive: 6.85%
CCc1ccc(OP(C)(=O)O)cc1 | inactive: -4.78%

Structure (SMILES) | inhibition
CP(=O)(Nc1ccccn1)Oc1ccccc1 (centres undefined) | inactive: -0.552%
COc1ccccc1OP(C)(=O)Nc1ccc(C)cc1C (centres undefined) | inactive: -2.55%
Cc1c(NP(C)(=O)Oc2ccc(C(C)C)cc2)c(=O)n(-c2ccccc2)n1C (centres undefined) | inactive: -0.368%
O=[N+]([O-])c1cc([N+](=O)[O-])c(Nc2ccccn2)c([N+](=O)[O-])c1 | inactive: -17.9%
CN(C)CCOC(=O)C(O)(c1ccccc1)C1CCCC1 (centres undefined) | inactive: -3.25%
COc1ccc(OP(C)(=O)Nc2ccccn2)cc1 (centres undefined) | inactive: -4.14%
COc1ccccc1OP(C)(=O)Nc1ccc(Br)cc1 (centres undefined) | inactive: -13.4%
CP(=O)(Nc1ccc(Cl)cc1Cl)Oc1ccccc1 (centres undefined) | inactive: -3.17%
CP(=O)(OCCOc1ccccc1)OCCOc1ccccc1 | inactive: -4.36%
Cc1nc2ccc3ccccc3c2o1.O=[N+]([O-])c1cc([N+](=O)[O-])c(O)c([N+](=O)[O-])c1 | inactive: -23.4%
COc1ccc(OP(C)(=O)Nc2ccccc2Br)cc1 (centres undefined) | inactive: -1.22%
COc1ccccc1OP(C)(=O)Nc1ccc(C)c(C)c1 (centres undefined) | inactive: 4%
Cc1cc(C)cc(OP(C)(=O)Nc2cccc(C(F)(F)F)c2)c1 (centres undefined) | inactive: 2.17%
CP(=O)(OC12CC3CC(CC(C3)C1)C2)OC12CC3CC(CC(C3)C1)C2 | inactive: -7.65%
CCOC(=O)c1ccc(NP(C)(=O)Oc2ccc(Cl)cc2)cc1 (centres undefined) | inactive: 0.181%
CN(C)C(=O)c1c([N+](=O)[O-])cc([N+](=O)[O-])cc1[N+](=O)[O-] | inactive: 5.17%
CP(=O)(Nc1ccc(Cl)cc1)Oc1ccc(F)cc1 (centres undefined) | inactive: 1.85%
COc1ccccc1OP(C)(=O)Nc1ccccc1Br (centres undefined) | inactive: 3.7%
CC(C)(C)c1ccc(OP(C)(=O)O)cc1 | inactive: 7.05%
CP(=O)(Oc1ccccc1)N1CCOC1=O (centres undefined) | inactive: -5.56%
CCc1ccc(OP(C)(=O)Nc2cccnc2)cc1 (centres undefined) | inactive: -0.238%

Structure (SMILES) | inhibition
COc1ccccc1OP(C)(=O)Nc1c(C)n(C)n(-c2ccccc2)c1=O (centres undefined) | inactive: 1.57%
O=C(OCCCN1CCCC1)C(O)(c1ccccc1)C1CCCCC1 (centres undefined) | inactive: -1.35%
CCN(CC)CC(O)COC(=O)C(O)(c1ccccc1)C1CCCCC1 (centres undefined) | inactive: 4.5%
COc1ccc(OP(C)(=O)Nc2ccc(Br)cc2)cc1 (centres undefined) | inactive: 34%
CP(=O)(Nc1ccccn1)Oc1ccc(Cl)cc1 (centres undefined) | inactive: -9.18%
CCOP(C)(=S)SCC(=O)NC(C)C(=O)O (centres undefined) | inactive: 5.84%
CCOC(=O)c1ccc(NP(C)(=O)Oc2ccc(OC)cc2)cc1 (centres undefined) | inactive: 2.66%
CP(=O)(NC(=O)Nc1ccccc1)Oc1ccccc1 (centres undefined) | inactive: -2.44%
CCc1ccc(OP(C)(=O)N2CCN(c3ccc([N+](=O)[O-])cc3)CC2)cc1 (centres undefined) | inactive: -4.71%
Cc1cc(C)cc(OP(C)(=O)Nc2ccc(SC(F)(F)F)cc2)c1 (centres undefined) | inactive: 1.71%
CP(=O)(Nc1ccc(SC(F)(F)F)cc1)Oc1ccc(Cl)cc1 (centres undefined) | inactive: 6.7%
Cc1cccc(C)c1OP(C)(=O)Nc1ccc(SC(F)(F)F)cc1 (centres undefined) | inactive: -2.77%
CP(=O)(Oc1ccccc1)OC(c1ccccc1)C(F)(F)F (centres undefined) | inactive: -1.76%
COc1ccccc1OP(C)(=O)Nc1ccccc1 (centres undefined) | inactive: -0.579%
CP(=O)(Nc1ccccc1Br)Oc1ccccc1 (centres undefined) | inactive: 2.51%
CP(=S)(Nn1cnnc1)Oc1ccccc1 (centres undefined) | inactive: -1.08%
COc1ccccc1OP(C)(=O)Nc1cc(Cl)ccc1C (centres undefined) | inactive: -10.4%
COc1ccc(OP(C)(=O)Nc2cccc(F)c2)cc1 (centres undefined) | inactive: -0.436%
Cc1cc(C)cc(OP(C)(N)=O)c1 (centres undefined) | inactive: 0.615%
CCOC(=O)c1ccc(NP(C)(=O)Oc2ccccc2)cc1 (centres undefined) | inactive: -3.02%
COc1ccccc1OP(C)(=O)Nc1ccc(C)cc1 (centres undefined) | inactive: -5.85%

Structure (SMILES) | inhibition
Cc1ccc(NP(C)(=O)Oc2ccccc2)c(C)c1 (centres undefined) | inactive: 2.4%
CC(C)(C)c1ccc(OP(C)(=O)Nc2ccc(SC(F)(F)F)cc2)cc1 (centres undefined) | inactive: 22.9%
Cc1cccc(C)c1OP(C)(N)=O (centres undefined) | inactive: -3.09%
O=[N+]([O-])c1ccc2c(c1)C=Nc1ccccc1O2 | inactive: -8.82%
CCN(CC)CCCOC(=O)C(O)(c1ccccc1)c1ccccc1 | inactive: -1.98%
Cc1cc(C)cc(OP(C)(=O)Nc2ccccn2)c1 (centres undefined) | inactive: 3.84%
CP(=O)(Nc1cccc(Br)c1)Oc1ccccc1 (centres undefined) | inactive: -0.911%
Cc1ccc(C)c(NP(C)(=O)Oc2ccccc2)c1 (centres undefined) | inactive: -6.87%
Cc1cc(C)cc(OP(C)(=O)Nc2ccc(C)cc2C)c1 (centres undefined) | inactive: -4.88%
CCOC(=O)c1ccc(NP(C)(=O)Oc2cc(C)cc(C)c2)cc1 (centres undefined) | inactive: 37.5%
COc1ccccc1OP(C)(=O)Nc1cccc(Br)c1 (centres undefined) | inactive: -0.501%
CC1=NCCc2c1[nH]c1ccccc21.O=[N+]([O-])c1cc([N+](=O)[O-])c(O)c([N+](=O)[O-])c1 | inactive: -61.9%
O=C(O)c1cccc(Nc2c([N+](=O)[O-])cc([N+](=O)[O-])cc2[N+](=O)[O-])c1 | inactive: -51.4%
CCCOc1ccc(NP(C)(=O)Oc2ccc(Cl)cc2)cc1 (centres undefined) | inactive: -9.01%
CP(=O)(Nc1ccc(SC(F)(F)F)cc1)Oc1ccccc1 (centres undefined) | inactive: 7.11%
CN1CCCCC1COC(=O)C1(O)c2ccccc2CCc2ccccc21 (centres undefined) | inactive: 8.78%
COc1ccccc1OP(C)(=O)Nc1c(C)cccc1C (centres undefined) | inactive: -0.228%
O=[N+]([O-])c1cc([N+](=O)[O-])c(Nc2nnnn2CCO)c([N+](=O)[O-])c1 | inactive: -19.8%
CCOC(=O)C(CC)C1=NC(C)(C)Cc2ccccc21.O=[N+]([O-])c1cc([N+](=O)[O-])c(O)c([N+](=O)[O-])c1 (centres undefined) | inactive: -39%
Cc1nc2ccc3ccccc3c2s1.O=[N+]([O-])c1cc([N+](=O)[O-])c(O)c([N+](=O)[O-])c1 | inactive: -25.2%
O=[N+]([O-])c1cc([N+](=O)[O-])c(-n2nnc3ccccc32)c([N+](=O)[O-])c1 | inactive: -24.3%
